For this experiment, the system named is K18-hACE mice. Nature of the experiment: BALF cytokine and chemokine composition by Luminex, S1SP intratracheal and KVX-053 (Example 15, Table 3). As to conditions: 5 μg S1SP intratracheally; saline or 20 mg/kg KVX-053 1 h later; 72 h; mean ± SD, N = 3.

In the case of `N=C1C(=O)NC(=O)c2cc(-c3ccccc3)sc21`, the “EOTAXIN in BALF” value was found to be 3.98 ± 2.74 pg/mL, the “GM-CSF in BALF” value is recorded as 1.30 ± 0.01 pg/mL, the “IFNg in BALF” value is 0.37 ± 0.06 pg/mL and the “IL-1β in BALF” value was 0.59 ± 0.00< pg/mL. The “IL-6 in BALF” value stood at 85.54 ± 44.95 pg/mL, the “IL-12p70 in BALF” value is 0.97 ± 0.00< pg/mL, the “IL-17 in BALF” value is listed as 0.23 ± 0.02 pg/mL and the “KC (Keratinocytes-derived chemokine) in BALF” value was determined as 20.35 ± 1.97 pg/mL. Further, the “MCP-1 (CCL3 Antigen) in BALF” value stood at 30.02 ± 33.91 pg/mL, the “MIP-1α in BALF” value was 44.21 ± 17.10 pg/mL, the “RANTES in BALF” value is listed as 2.68 ± 3.00 pg/mL and the “TNF-α in BALF” value amounted to 3.77 ± 3.10 pg/mL. Besides, the “VEGF in BALF” value was determined as 2.54 ± 1.58 pg/mL.

Source of the values: US20240382467A1, “COMPOSITIONS AND METHODS FOR TREATING AND/OR PREVENTING LUNG INJURY” (published 2024).
